Patent publication US10029984B2, “Mono- or di-substituted indole derivatives as dengue viral replication inhibitors” (Janssen Pharmaceuticals, Inc., priority 2015, dated 2018)

System: DENV-2 16681 strain
Assay: DENV-2 antiviral assay (eGFP-labeled virus in Vero cells)
Type: cell-based, Dengue virus
Settings: SI=CC50/EC50, DENV-2 antiviral assay
Experimental: The antiviral activity of all the compounds of the invention was tested against DENV-2 16681 strain which was labeled with enhanced green fluorescent protein (eGPF; Table 1). The culture medium consists of minimal essential medium supplemented with 2% of heat-inactivated fetal calf serum, 0.04% gentamycin (50 mg/mL) and 2 mM of L-glutamine. Vero cells, obtained from ECACC, were suspended in culture medium and 25 μL was added to 384-well plates (2500 cells/well), which already contain the antiviral compounds. Typically, these plates contain a 4-fold serial dilution of 9 dilution steps of the test compound at 200 times the final concentration in 100% DMSO (200 nL). In addition, each compound concentration is tested in quadruplicate (final concentration range: 25 μM-0.00038 μM). Finally, each plate contains wells which are assigned as virus controls (containing cells and virus in the absence of compound), cell controls (containing cells in the absence of virus and compound) and medium controls (containing medium in the absence of cells, virus and compounds). To the wells assigned as medium control, 25 μL of culture medium was added instead of Vero cells. Once the cells were added to the plates, the plates were incubated for 30 minutes at room temperature to allow the cells to distribute evenly within the wells. Next, the plates were incubated in a fully humidified incubator (37° C., 5% CO2) until the next day. Then, DENV-2 strain 16681, labeled with eGFP, was added at a multiplicity of infection (MOI) of 0.5. Therefore, 15 μL of virus suspension was added to all the wells containing test compound and to the wells assigned as virus control. In parallel, 15 μL of culture medium was added to the medium and cell controls. Next, the plates were incubated for 3 days in a fully humidified incubator (37° C., 5% CO2). At the day of the read out, the eGFP fluorescence was measured using an automated fluorescence microscope at 488 nm (blue laser). Using an in-house LIMS system, inhibition dose response curves for each compound were calculated and the half maximal effective concentration (EC50) was determined. Therefore, the percent inhibition (I) for every test concentration is calculated using the following formula: I=100*(ST−SCC)/(SVC−SCC); ST, SCC and SVC are the amount of eGFP signal in the test compound, cell control and virus control wells, respectively. The EC50 represents the concentration of a compound at which the virus replication is inhibited with 50%, as measured by a 50% reduction of the eGFP fluorescent intensity compared to the virus control. The EC50 is calculated using linear interpolation.

| SMILES | SI | other results |
| --- | --- | --- |
| COc1cc(NC(C(=O)c2c[nH]c3c(Cl)c(OC)ccc23)c2ccc(F)cc2OC)cc(S(C)(=O)=O)c1 (single isomer, unassigned) [Enantiomer 12B, 1-(7-chloro-6-methoxy-1H-indol-3-yl)-2-(4-fluoro-2-methoxyphenyl)-2-((3-methoxy-5-(methylsulfonyl)phenyl)amino)ethanone] | – | SI (listed as 12B): >1373 |
| COc1cc(NC(C(=O)c2c[nH]c3cc(OC)c(F)cc23)c2ccc(F)cc2OC)cc(S(C)(=O)=O)c1 (single isomer, unassigned) [Enantiomer 11B, 2-(4-fluoro-2-methoxyphenyl)-1-(5-fluoro-6-methoxy-1H-indol-3-yl)-2-((3-methoxy-5-(methylsulfonyl)phenyl)amino)ethanone] | – | SI (listed as 11B): >1617 |
| COc1cc(NC(C(=O)c2c[nH]c3cc(OC)c(F)cc23)c2ccc(F)cc2OC)cc(S(C)(=O)=O)c1 (racemic) [Compound 11, 2-(4-fluoro-2-methoxyphenyl)-1-(5-fluoro-6-methoxy-1H-indol-3-yl)-2-((3-methoxy-5-(methylsulfonyl)phenyl)amino)ethanone] | 4058 | – |
| COc1cc(NC(C(=O)c2c[nH]c3cc(F)ccc23)c2ccc(F)cc2OC)cc(S(C)(=O)=O)c1 (racemic) [Compound 1, 1-(6-fluoro-1H-indol-3-yl)-2-(4-fluoro-2-methoxyphenyl)-2-((3-methoxy-5-(methylsulfonyl)phenyl)amino)ethanone] | 4879 | – |
| COc1cc(NC(C(=O)c2c[nH]c3cc(F)c(C)cc23)c2ccc(F)cc2OC)cc(S(C)(=O)=O)c1 (racemic) [Compound 14, 2-(4-fluoro-2-methoxyphenyl)-1-(6-fluoro-5-methyl-1H-indol-3-yl)-2-((3-methoxy-5-(methylsulfonyl)phenyl)amino)ethanone] | 3360 | – |
| COc1cc(NC(C(=O)c2c[nH]c3c(Cl)c(OC)ccc23)c2ccc(F)cc2OC)cc(S(C)(=O)=O)c1 (racemic) [Compound 12, 1-(7-chloro-6-methoxy-1H-indol-3-yl)-2-(4-fluoro-2-methoxyphenyl)-2-((3-methoxy-5-(methylsulfonyl)phenyl)amino)ethanone] | >65542 | – |
| COc1cc(NC(C(=O)c2c[nH]c3ccc(C)cc23)c2ccc(F)cc2OC)cc(S(C)(=O)=O)c1 (racemic) [Compound 15, 2-(4-fluoro-2-methoxyphenyl)-2-((3-methoxy-5-(methylsulfonyl)phenyl)amino)-1-(5-methyl-1H-indol-3-yl)ethanone] | 5240 | – |
| COc1cc(NC(C(=O)c2c[nH]c3cc(C)c(F)cc23)c2ccc(F)cc2OC)cc(S(C)(=O)=O)c1 (single isomer, unassigned) [Enantiomer 9B, 2-(4-fluoro-2-methoxyphenyl)-1-(5-fluoro-6-methyl-1H-indol-3-yl)-2-((3-methoxy-5-(methylsulfonyl)phenyl)amino)ethanone] | – | SI (listed as 9B): 212 |
| COc1cc(NC(C(=O)c2c[nH]c3cc(F)c(F)cc23)c2ccc(F)cc2OC)cc(S(C)(=O)=O)c1 (single isomer, unassigned) [Enantiomer 7B, 1-(5,6-difluoro-1H-indol-3-yl)-2-(4-fluoro-2-methoxyphenyl)-2-((3-methoxy-5-(methylsulfonyl)phenyl)amino)ethanone] | – | SI (listed as 7B): 216 |
| COc1cc(NC(C(=O)c2c[nH]c3cc(OC)ccc23)c2ccc(F)cc2OC)cc(S(C)(=O)=O)c1 (racemic) [Compound 5, 2-(4-fluoro-2-methoxyphenyl)-1-(6-methoxy-1H-indol-3-yl)-2-((3-methoxy-5-(methylsulfonyl)phenyl)amino)ethanone] | 10164 | – |
| COc1cc(NC(C(=O)c2c[nH]c3cc(OC)c(C)cc23)c2ccc(F)cc2OC)cc(S(C)(=O)=O)c1 (single isomer, unassigned) [Enantiomer 10A, 2-(4-fluoro-2-methoxyphenyl)-2-((3-methoxy-5-(methylsulfonyl)phenyl)amino)-1-(6-methoxy-5-methyl-1H-indol-3-yl)ethanone] | – | SI (listed as 10A): 550 |
| COc1cc(NC(C(=O)c2c[nH]c3c(C)cc(F)cc23)c2ccc(F)cc2OC)cc(S(C)(=O)=O)c1 (racemic) [Compound 8, 2-(4-fluoro-2-methoxyphenyl)-1-(5-fluoro-7-methyl-1H-indol-3-yl)-2-((3-methoxy-5-(methylsulfonyl)phenyl)amino)ethanone] | 2710 | – |
| COc1cc(NC(C(=O)c2c[nH]c3cc(F)ccc23)c2ccc(F)cc2OC)cc(S(C)(=O)=O)c1 (single isomer, unassigned) [Enantiomer 1B, 1-(6-fluoro-1H-indol-3-yl)-2-(4-fluoro-2-methoxyphenyl)-2-((3-methoxy-5-(methylsulfonyl)phenyl)amino)ethanone] | – | SI (listed as 1B): 283 |
| COc1cc(NC(C(=O)c2c[nH]c3cc(Cl)ccc23)c2ccc(F)cc2OC)cc(S(C)(=O)=O)c1 (single isomer, unassigned) [Enantiomer 4B, 1-(6-chloro-1H-indol-3-yl)-2-(4-fluoro-2-methoxyphenyl)-2-((3-methoxy-5-(methylsulfonyl)phenyl)amino)ethanone] | – | SI (listed as 4B): 814 |
| COc1cc(NC(C(=O)c2c[nH]c3cc(C)c(F)cc23)c2ccc(F)cc2OC)cc(S(C)(=O)=O)c1 (racemic) [Compound 9, 2-(4-fluoro-2-methoxyphenyl)-1-(5-fluoro-6-methyl-1H-indol-3-yl)-2-((3-methoxy-5-(methylsulfonyl)phenyl)amino)ethanone] | 5457 | – |
